Measured values from several laboratories, pooled; numbers as filed in NIAID ChemDB.

Shared fields: host cell toxicity; cells: MT-4; read by: MTT; read-out: CC50

CCn: concentration that lowers growth or viability of the cells by n%.

smiles	value
Cc1cccc(Sc2c(C(=O)NCCO)[nH]c3ccc(Cl)cc23)c1	30 µM
CCC(O)(c1cccc(C)c1)c1c(C)c(=O)[nH]c(=O)n1COCc1ccccc1	154 µM
COc1ccc(/C=C/CSc2nc(Cc3c(Cl)cccc3Cl)c(C)c(=O)[nH]2)cc1	0.96 µM
CC1=C(C(=O)Nc2ccccc2)C2=NN=C(N)C2C(=O)N1	≥94.7 µg/mL
CC=CC(=O)c1c(CC)c(=O)[nH]c(=O)n1COCC	30 µM
Cc1c(C(C)c2c(F)cccc2F)nc(SC/C=C/c2ccc(C#N)cc2)[nH]c1=O	>59.1 µM
COc1cc([C@@H]2c3cc(O)c(OC)cc3C(=O)[C@@H](C)[C@H]2C)ccc1O	91.2 µg/mL
CC(C)CN(C[C@@H](O)[C@H](Cc1ccccc1)NC(=O)OC1CCOC1)S(=O)(=O)c1ccc2nc(N)sc2c1	<100 µM
Cc1ccccc1C(C)(O)c1c(C)c(=O)[nH]c(=O)n1COCc1ccccc1	175 µM
COc1cc2nc(S(=O)CC(=O)Nc3ccc(C(F)(F)F)cc3)nc(Nc3c(C)cc(/C=C/C#N)cc3C)c2cc1OC	52.2 µM
O=C(NNCCO)c1[nH]c2ccc(Cl)cc2c1S(=O)(=O)c1ccccc1	>100 µM
COc1cc2nc(S(=O)CC(=O)Nc3ccc(Cl)cc3)nc(Nc3c(Cl)cc(/C=C/C#N)cc3Cl)c2cc1OC	14.4 µM
COC(=O)/C=C1\S/C(=N/N=C/c2cc([N+](=O)[O-])ccc2O)NC1=O	0.088 µM
COc1cc2nc(S(=O)CC(=O)Nc3ccccc3C#N)nc(Nc3c(Cl)cc(/C=C/C#N)cc3Cl)c2cc1OC	>206 µM
COC(=O)/C=C1\S/C(=N/N=C/c2ccccc2OCc2ccccc2)NC1=O	14.35 µM
Cc1c(C(C)(O)c2ccccc2Cl)n(COCc2ccccc2)c(=O)[nH]c1=O	154 µM
COC(=O)/C=C1\S/C(=N/N=C/c2cccc(Br)c2)NC1=O	11.15 µM
CC=CC(O)c1c(CC)c(=O)[nH]c(=O)n1COCC	>100 µM
CCC(c1ccc(C)cc1)c1c(C)c(=O)[nH]c(=O)n1COCc1ccccc1	43.7 µM
CC(C)CN(C[C@@H](O)[C@H](Cc1ccccc1)NC(=O)O[C@H]1CO[C@H]2OCC[C@H]21)S(=O)(=O)c1ccc2nc(N)sc2c1	85.11 µM
Cc1cc(C)cc(Sc2c(C(=O)NNCCO)[nH]c3ccc(Cl)cc23)c1	45 µM
CCO/C(CC(=O)NCc1ccc(F)cc1)=N\Nc1ccccc1[N+](=O)[O-]	5.17 µM
Cc1cccc(S(=O)(=O)c2c(C(=O)NCCO)[nH]c3ccc(Cl)cc23)c1	60 µM
Cc1c(C(C)c2c(F)cccc2F)nc(SC/C=C/c2ccc([N+](=O)[O-])cc2)[nH]c1=O	>11.28 µM
C#Cc1ccc(Nc2nccc(Oc3c(C)cc(-c4cn(CCc5cccs5)nn4)cc3C)n2)cc1	5.53 µM
COc1ccc(/C=C/CSc2nc(C(C)c3c(Cl)cccc3Cl)c(C)c(=O)[nH]2)cc1	>10.84 µM
Cc1ccccc1S(=O)(=O)c1c(C(=O)NCCO)[nH]c2ccc(Cl)cc12	>100 µM
CC1=C[C@@H]([C@H]2Oc3cc4c(c5c3[C@H](CC5)[C@@H]2C)CC[C@H]2C(C)(C)O[C@@H]3CC(=O)O[C@@]32C4)OC1=O	~120 µg/mL
Cl.NCCn1nnc2ccccc21	>100 µM
COc1cc2nc(S(=O)CC(=O)Nc3ccc([N+](=O)[O-])cc3)nc(Nc3c(C)cc(/C=C/C#N)cc3C)c2cc1OC	189 µM
C=C(c1ccc(C)cc1)c1c(C)c(=O)[nH]c(=O)n1COCc1ccccc1	81.53 µM
C#Cc1ccc(Nc2nccc(Oc3c(C)cc(-c4cn(Cc5ccc(C(=O)OC)cc5)nn4)cc3C)n2)cc1	128 µM
Cc1c(C(C)(O)c2ccc(F)cc2)n(COCc2ccccc2)c(=O)[nH]c1=O	237 µM
COc1ccc(/C=C/CSc2nc(Cc3c(F)cccc3F)c(C)c(=O)[nH]2)cc1	393 µM
CCO/C(CC(=O)NCc1ccc(Cl)cc1)=N\Nc1ccccc1[N+](=O)[O-]	15.91 µM
CCC(O)(c1cccc(OC)c1)c1c(C)c(=O)[nH]c(=O)n1COCc1ccccc1	109 µM
CCOC(=O)c1nnsc1NCc1ccccc1N	>290 µM
COc1ccc(C(C)c2c(C)c(=O)[nH]c(=O)n2COCc2ccccc2)cc1	>329 µM
COc1cc2nc(S(=O)CC(=O)Nc3ccc(F)cc3)nc(Nc3c(C)cc(/C=C/C#N)cc3C)c2cc1OC	27.4 µM
Cc1c(Cc2c(Cl)cccc2Cl)nc(SC/C=C/c2ccc([N+](=O)[O-])cc2)[nH]c1=O	>10.82 µM
CCc1ccc(NC(=O)C2=C(C)NC(=O)C3C(N)=NN=C23)cc1	>98 µg/mL
COC(=O)/C=C1\S/C(=N/N=C/C2CCCCC2)NC1=O	57.53 µM
Cc1ccc(Sc2c(C(=O)NCCO)[nH]c3ccc(Cl)cc23)c(C)c1	>100 µM
CC1=C(C(=O)Nc2cccc(C)c2)C2=NN=C(N)C2C(=O)N1	68.3 µg/mL
C=Cc1cc(N(CC)CC)nc(S(=O)(=O)Cc2ccc(OC)cc2)n1	42.9 µM
CC(C)CN(C[C@@H](O)[C@H](Cc1ccccc1)NC(=O)O[C@H]1CCOC1)S(=O)(=O)c1ccc2nc(N)sc2c1	<100 µM
CC(C)C(N)C(=O)O[C@@H](C[C@@H](Cc1ccccc1)C(=O)N[C@H]1c2ccccc2C[C@H]1O)CN1CCN(Cc2cccnc2)C[C@H]1C(=O)NC(C)(C)C	>100 µM
CCO/C(CC(=O)NCc1ccc(C)cc1)=N\Nc1ccccc1[N+](=O)[O-]	18.16 µM
Cc1cc(C(Cl)c2ccc(C(C)(C)C)cc2)nc(Nc2ccc(C#N)cc2)n1	31.9 µM
Cc1cc(C)cc(Sc2c(C(=O)NCCO)[nH]c3ccc(Cl)cc23)c1	42 µM
CCOCn1c(Cc2ccccc2)c(C(C)C)c(=O)[nH]c1=O	>100 µM
CC1=C(C(=O)Nc2ccc(Cl)cc2)C2=NN=C(N)C2C(=O)N1	93.5 µg/mL
c1ccc(COC2C3COC(O3)C(OCc3ccccc3)C2OCc2ccccc2)cc1	>200 µg/mL

Repeating the final 7 entries:

{"smiles": "CC(C)C(N)C(=O)O[C@@H](C[C@@H](Cc1ccccc1)C(=O)N[C@H]1c2ccccc2C[C@H]1O)CN1CCN(Cc2cccnc2)C[C@H]1C(=O)NC(C)(C)C", "value": ">100 µM"}
{"smiles": "CCO/C(CC(=O)NCc1ccc(C)cc1)=N\\Nc1ccccc1[N+](=O)[O-]", "value": "18.16 µM"}
{"smiles": "Cc1cc(C(Cl)c2ccc(C(C)(C)C)cc2)nc(Nc2ccc(C#N)cc2)n1", "value": "31.9 µM"}
{"smiles": "Cc1cc(C)cc(Sc2c(C(=O)NCCO)[nH]c3ccc(Cl)cc23)c1", "value": "42 µM"}
{"smiles": "CCOCn1c(Cc2ccccc2)c(C(C)C)c(=O)[nH]c1=O", "value": ">100 µM"}
{"smiles": "CC1=C(C(=O)Nc2ccc(Cl)cc2)C2=NN=C(N)C2C(=O)N1", "value": "93.5 µg/mL"}
{"smiles": "c1ccc(COC2C3COC(O3)C(OCc3ccccc3)C2OCc2ccccc2)cc1", "value": ">200 µg/mL"}

Rows are shuffled and stem from different studies.